A mixed list of measured activities; the numbers were collected in NIAID ChemDB.

Shared fields: growth or infection tests; species: HIV-1; read-out: EC50

ECn: concentration that inhibits the pathogen or its effect by n%. Blank or dashed fields: not listed here. Neighbouring rows are from separate reports.

{"structure": "CC(C)=CCN1Cc2cc(Cl)cc3[nH]c(=S)n(c23)C[C@@H]1C", "cells": "PBMC", "mutations": "RT-A98G", "strain or isolate": "VAU (RT-A98G)", "result": "0.08 µM"}
{"structure": "CC(=O)NCCCCN(C[C@H]1Cc2ccccc2CN1)[C@H]1CCCc2cccnc21", "cells": "MAGI-CCR5", "strain or isolate": "IIIB", "method": "MTS", "result": "0.29 µM"}
{"structure": "Cc1cn([C@@H]2O[C@H](CO)C3(OS(=O)(=O)C=C3N)[C@H]2O[Si](C)(C)C(C)(C)C)c(=O)[nH]c1=O", "cells": "MT-4", "strain or isolate": "HE", "method": "cytopathic effect / trypan blue", "result": ">80 µM"}
{"structure": "CC(C)N1Cc2ccccc2C[C@@H]1CN(CCCCN)[C@H]1CCCc2cccnc21", "cells": "MAGI-CCR5", "strain or isolate": "IIIB", "method": "MTS", "result": "0.02 µM"}
{"structure": "CO[P@](=O)(c1cc(C)cc(/C=C/C#N)c1)c1c(C(N)=O)[nH]c2ccc(Cl)cc12", "cells": "MT-4", "mutations": "K103N/Y181C", "strain or isolate": "IIIB", "result": "0.0091 µM"}
{"structure": "NCCCCN(C[C@H]1Cc2ccccc2CN1CC(=O)N1CCOCC1)[C@H]1CCCc2cccnc21", "cells": "MAGI-CCR5", "strain or isolate": "IIIB", "method": "MTS", "result": "0.08 µM"}
{"structure": "Cc1cn([C@@H]2O[C@H](CO[Si](C)(C)C(C)(C)C)C3(OS(=O)(=O)C=C3N)[C@H]2O[Si](C)(C)C(C)(C)C)c(=O)n(C)c1=O", "cells": "MT-4", "strain or isolate": "HE", "method": "cytopathic effect / trypan blue", "result": "0.051 µM"}
{"structure": "Cc1cn([C@H]2C[C@H](N=[N+]=[N-])[C@@H](CO)O2)c(=O)[nH]c1=O", "cells": "MT-4", "strain or isolate": "IIIB", "method": "p24 / antigen", "result": "0.000083 µg/mL"}
{"structure": "CNc1ccc(Cl)cc1S(=O)(=O)c1ccccc1[N+](=O)[O-]", "cells": "CEM + CEM-SS", "strain or isolate": "NL4-3", "method": "XTT", "result": "0.2 µM"}
{"structure": "CC(C)CN(C[C@@H](O)[C@H](Cc1ccccc1)NC(=O)O[C@H]1CCOC1)S(=O)(=O)c1ccc(N)cc1", "cells": "MT-4", "mutations": "A28S L33F V82I GRL04810-resistant", "strain or isolate": "NL4-3", "result": ">1 µM"}
{"structure": "Cc1cn([C@H]2C=C[C@@H](CO)O2)c(=O)[nH]c1=O", "cells": "MT-2", "mutations": "M41L/D67N/K70R/K103N/L210W/T215F/K219Q", "strain or isolate": "Clinical isolate", "method": "recombinant virus assay", "result": "1.632 µM"}
{"structure": "Cc1ccnc2c1NC(=O)c1cccnc1N2C1CC1", "cells": "AA5", "strain or isolate": "IIIB", "method": "cytopathic effect / XTT", "result": "0.7 µM"}
{"structure": "C[C@@H]1CCCC[C@H]1Oc1cc(CCc2ccccc2)[nH]c(=O)c1I", "cells": "TZM-bl", "strain or isolate": "A17", "method": "ELISA", "result": "0.543 µM"}
{"structure": "Cc1cn([C@H]2C[C@H](N=[N+]=[N-])[C@@H](CO)O2)c(=O)[nH]c1=O", "cells": "PBMC", "mutations": "RT-A98G Y181C", "strain or isolate": "BCF08", "result": "<0.01 µM"}
{"structure": "CCOC(=O)[C@H](C)N[P@](=O)(CO[C@@H]1C=C(F)[C@H](n2cnc3c(N)ncnc32)O1)Oc1ccccc1", "conditions": "4 d", "cells": "PBMCs", "strain or isolate": "B940374 (subtype B)", "method": "p24 / ELISA / antigen", "result": "0.03 µM"}
{"structure": "CC(C)CN(C[C@@H](O)[C@H](Cc1ccccc1)NC(=O)O[C@H]1CO[C@H]2OCC(F)(F)[C@H]21)S(=O)(=O)c1ccc(N)cc1", "conditions": "clinical isolate, multidrug-resistant", "cells": "PBMC", "mutations": "L10I I15V K20R L24I M36I M46L I54V I62V L63P K70Q V82A L89M", "strain or isolate": "Clinical isolate", "result": "0.002 µM"}
{"structure": "Nc1nc2c(ncn2COCCO)c(=O)[nH]1", "cells": "PHA-activated CD4+ lymphoblasts", "mutations": "T69N", "strain or isolate": "CXCR4-tropic HIV pseudovirus", "method": "GFP", "result": "50 µM"}
{"structure": "CCN[C@H]1CO[C@@H]2OC[C@H](OC(=O)N[C@@H](Cc3cc(F)cc(F)c3)[C@H](O)CN(CC(C)C)S(=O)(=O)c3ccc4nc(NC5CC5)sc4c3)[C@@H]21", "cells": "MT-4", "strain or isolate": "NL4-3", "method": "p24 / luminescence", "result": "0.0092 µM"}
{"structure": "O=C(C(=O)N1CCC(=C2c3ccccc3CCc3ccccc32)CC1)c1c[nH]c2c(Br)ncc(F)c12", "cells": "MT-2", "strain or isolate": "LAI", "method": "luciferase / reporter gene / single cycle", "result": ">0.5 µM"}
{"structure": "Cc1cn([C@H]2C[C@H](N=[N+]=[N-])[C@@H](CO)O2)c(=O)[nH]c1=O", "cells": "MT-4", "strain or isolate": "HXB2D", "method": "RT activity", "result": "0.01 µM"}
{"structure": "CCOC(=O)[C@@H](Cc1ccc(O)c(O)c1)OC(=O)/C=C/c1ccc(O)c(O)c1/C=C/c1ccc(O)c(O)c1", "cells": "MT-4", "strain or isolate": "IIIB", "method": "p24 / antigen", "result": "1.44 µg/mL"}
{"structure": "Nc1ncnc2c1ncn2[C@@H]1O[C@H](OCP(=O)(O)O)C=C1F", "conditions": "4 d", "cells": "PBMCs", "strain or isolate": "UG-92-031 (subtype A)", "method": "p24 / ELISA / antigen", "result": "12.5 µM"}
{"structure": "Cc1cn([C@H]2C[C@H](N=[N+]=[N-])[C@@H](CO)O2)c(=O)[nH]c1=O", "cells": "TZM-bl", "strain or isolate": "BCF02", "method": "luciferase / luminescence", "result": "0.00617 µM"}
{"structure": "CN(C[C@@H](CCN1CCC2(CC1)CS(=O)(=O)c1ccccc12)c1cccc(Cl)c1)S(=O)(=O)c1ccccc1", "cells": "PBMC", "strain or isolate": "M-tropic YU-2", "method": "p24 / antigen", "result": "<3 µM"}
{"structure": "CC(C)(C)NC(=O)[C@@H]1CN(Cc2cccnc2)CCN1C[C@@H](O)C[C@@H](Cc1ccccc1)C(=O)CN1c2ccccc2C[C@H]1O.O=S(=O)(O)O", "cells": "MT-4", "strain or isolate": "NL4-3", "method": "p24 / luminescence", "result": "0.0254 µM"}
{"structure": "CC(C)(C)NC(=O)[C@@H]1C[C@@H]2CCCC[C@@H]2CN1C[C@@H](O)[C@H](Cc1ccccc1)NC(=O)[C@H](CC(N)=O)NC(=O)c1ccc2ccccc2n1", "cells": "HUT-78/IIIB/LAI + HUT 78", "strain or isolate": "IIIB/LAI", "method": "virus yield", "result": "0.3 µM"}
{"structure": "CN(C[C@@H](CCN1CCC2(CC1)CS(=O)c1ccccc12)c1cccc(Cl)c1)S(=O)(=O)c1ccccc1", "cells": "PBMC", "strain or isolate": "M-tropic YU-2", "method": "p24 / antigen", "result": "<0.8 µM"}
{"structure": "C[C@H](Cn1cnc2c(N)ncnc21)OCP(=O)(O)O", "conditions": "4 d", "cells": "PBMCs", "strain or isolate": "UG-92-031 (subtype A)", "method": "p24 / ELISA / antigen", "result": "1.8 µM"}
{"structure": "Cc1ccnc2c1NC(=O)c1cccnc1N2C1CC1", "cells": "MT-2", "strain or isolate": "Nevirapine-resistant (RT Y181C)", "method": "cytopathic effect / neutral red", "result": ">1.25 µM"}
{"structure": "COc1ccc(S(=O)(=O)N(CC(C)C)C[C@@H](O)[C@H](Cc2ccccc2)NC(=O)O[C@H]2CO[C@H]3OCC(F)(F)[C@H]32)cc1", "cells": "MT-4", "mutations": "L10F M46I I54V V82A LPV resistant", "strain or isolate": "NL4-3", "result": "0.03 µM"}
{"structure": "Cc1cn([C@@H]2O[C@H](CO)C3(OS(=O)(=O)C=C3N)[C@H]2O)c(=O)[nH]c1=O", "cells": "MT-4", "strain or isolate": "IIIB", "method": "cytopathic effect / trypan blue", "result": ">300 µM"}
{"structure": "CN(C[C@@H](CCN1CCC(c2ccccc2)CC1)c1cccc(Cl)c1)S(=O)(=O)c1ccccc1", "strain or isolate": "M-tropic YU-2", "method": "p24 / antigen", "result": "<6 µM"}
{"structure": "COC(=O)[C@@H](Cc1ccc(O)c(O)c1)OC(=O)/C=C/c1ccc(O)c(O)c1/C=C/c1ccc(O)c(O)c1", "cells": "MT-4", "strain or isolate": "IIIB", "method": "p24 / antigen", "result": "1.62 µg/mL"}
{"structure": "Cc1cn([C@H]2C[C@H](N=[N+]=[N-])[C@@H](CO)O2)c(=O)[nH]c1=O", "cells": "MT-4", "strain or isolate": "NL4-3", "method": "p24 / luminescence", "result": "0.0325 µM"}
{"structure": "CN(C)C(=O)NCCCCN(C[C@H]1Cc2ccccc2CN1)[C@H]1CCCc2cccnc21", "cells": "MAGI-CCR5", "strain or isolate": "IIIB", "method": "MTS", "result": "0.42 µM"}
{"structure": "Cc1cn([C@H]2C[C@H](N=[N+]=[N-])[C@@H](CO)O2)c(=O)[nH]c1=O", "cells": "PBMCs", "method": "p24 / ELISA / antigen", "result": "0.015 µM"}
{"structure": "COc1ccc2c(c1)c(CC(=O)O)c(C)n2C(=O)c1ccc(Cl)cc1", "cells": "MT-4", "strain or isolate": "IIIB", "method": "XTT / p24", "result": "10 µM"}
{"structure": "Cc1ccc(-n2c(C)nnc2SCC(=O)Nc2ccccc2Cl)cc1", "cells": "HeLa + HeLa-JC53", "mutations": "RT-K103N Y181C", "strain or isolate": "NL4-3", "method": "luciferase", "result": "0.15 µM"}
{"structure": "CN(CC(CCN1CCC2(CC1)CS(=O)c1ccccc12)c1ccccc1)S(=O)(=O)c1ccccc1", "cells": "PBMC", "strain or isolate": "M-tropic YU-2", "method": "p24 / antigen", "result": "<0.8 µM"}
{"structure": "O=c1[nH]cnc2c1ncn2[C@H]1CC[C@@H](CO)O1", "cells": "PBMC", "mutations": "RT-A98G Y181C", "strain or isolate": "BCF03", "result": "1.2 µM"}
{"structure": "CN1Cc2ccccc2C[C@@H]1CN(CCCCN)[C@H]1CCCc2cccnc21", "cells": "MAGI-CCR5", "strain or isolate": "IIIB", "method": "MTS", "result": "0.02 µM"}
{"structure": "CC(C)(C)NC(=O)[C@@H]1CN(Cc2cccnc2)CCN1C[C@@H](O)C[C@@H](Cc1ccccc1)C(=O)N[C@H]1c2ccccc2C[C@H]1O", "cells": "MT-2", "mutations": "Indinavir-resistant (PR-M46I L63P V82T I84V)", "strain or isolate": "NL4-3", "method": "cytopathic effect / neutral red", "result": "0.0177 µM"}
{"structure": "CC(C)NCCCCN(C[C@H]1Cc2ccccc2CN1)[C@H]1CCCc2cccnc21", "cells": "MAGI-CCR5", "strain or isolate": "IIIB", "method": "MTS", "result": "0.04 µM"}
{"structure": "CC(=O)N1CCC(C(=O)N(CCCN2CCC(Cc3ccc(C(N)=O)cc3)CC2)c2ccc(C)c(Cl)c2)CC1", "cells": "U87 (CD4+ CCR5+) + U87", "strain or isolate": "R5 subtype C_1 recombinant", "method": "luciferase", "result": "0.014 µM"}
{"structure": "Nc1nc(=O)n([C@@H]2CS[C@H](CO)O2)cc1F", "cells": "MT-2", "mutations": "M184V", "strain or isolate": "Clinical isolate", "method": "recombinant virus assay", "result": "13.3 µM"}
{"structure": "Cc1cc(S(N)(=O)=O)ccc1NC(=O)COc1ccc(Cl)cc1C(=O)c1cccc(C#N)c1", "cells": "MT-4", "mutations": "RT-Y181C", "strain or isolate": "Nevirapine-resistant", "method": "cytopathic effect / MTS", "result": "0.002 µM"}
{"structure": "CC(Cc1ccc(O)c(O)c1)C(C)Cc1ccc(O)c(O)c1", "cells": "MT-4", "strain or isolate": "IIIB", "method": "XTT / p24", "result": "~10 µM"}
{"structure": "CC(C)OC(=O)OCCP(=O)(CO[C@H](C)Cn1cnc2c(N)ncnc21)OCOC(=O)OC(C)C.O=C(O)/C=C/C(=O)O", "cells": "MT-4", "strain or isolate": "NL4-3", "method": "p24 / luminescence", "result": "0.3057 µM"}
{"structure": "NC(=O)NCCCCN(C[C@H]1Cc2ccccc2CN1)[C@H]1CCCc2cccnc21", "cells": "MAGI-CCR5", "strain or isolate": "IIIB", "method": "MTS", "result": "0.21 µM"}

For reference, 6 entries again:

structure | conditions | cells | mutations | strain or isolate | method | result
Cc1ccc(-n2c(C)nnc2SCC(=O)Nc2ccccc2Cl)cc1 | - | HeLa + HeLa-JC53 | RT-K103N Y181C | NL4-3 | luciferase | 0.15 µM
CN(CC(CCN1CCC2(CC1)CS(=O)c1ccccc12)c1ccccc1)S(=O)(=O)c1ccccc1 | - | PBMC | - | M-tropic YU-2 | p24 / antigen | <0.8 µM
Nc1ncnc2c1ncn2[C@@H]1O[C@H](OCP(=O)(O)O)C=C1F | 4 d | PBMCs | - | UG-92-031 (subtype A) | p24 / ELISA / antigen | 12.5 µM
CO[P@](=O)(c1cc(C)cc(/C=C/C#N)c1)c1c(C(N)=O)[nH]c2ccc(Cl)cc12 | - | MT-4 | K103N/Y181C | IIIB | - | 0.0091 µM
Cc1ccnc2c1NC(=O)c1cccnc1N2C1CC1 | - | AA5 | - | IIIB | cytopathic effect / XTT | 0.7 µM
CCOC(=O)[C@@H](Cc1ccc(O)c(O)c1)OC(=O)/C=C/c1ccc(O)c(O)c1/C=C/c1ccc(O)c(O)c1 | - | MT-4 | - | IIIB | p24 / antigen | 1.44 µg/mL